Measured values reported in patent US20170130229.

Chains of the proteins cited; added tags and fusions are not shown. Lines headed by an entry give the natural chain unless they say otherwise; changes in a name come on top.
UniProt Q82506: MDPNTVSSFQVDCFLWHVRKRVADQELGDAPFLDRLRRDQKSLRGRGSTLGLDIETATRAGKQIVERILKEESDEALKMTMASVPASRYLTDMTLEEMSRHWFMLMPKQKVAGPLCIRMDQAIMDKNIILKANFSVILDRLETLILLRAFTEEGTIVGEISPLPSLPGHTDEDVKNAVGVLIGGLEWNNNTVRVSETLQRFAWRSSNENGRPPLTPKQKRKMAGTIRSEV

Biological target: NS1 (WSN) (Influenza A virus A/WSN/1/33 (H1N1)) (UniProt Q82506)
Test: pull-down
Conditions: protein in cells

Does “GUCAGCAGUGCCUUAGCAGCACGUAAAUAUUGGCGUUAAGAUUCUAAAAUUAUCUCCAGUAUUAACUGUGCUGCUGAAGUAAGGUUGAC [pre-miR-16]” bind?
Result: binds

The exact form of at least one protein or probe is not confirmed. At least one result comes from cells or an extract, where the contact may be indirect.
